Experimental data: doi:10.1101/2023.07.27.550809

Test system: T1, TimR-Strep (Listeria monocytogenes EGD-e)
T1 sequence (looked up): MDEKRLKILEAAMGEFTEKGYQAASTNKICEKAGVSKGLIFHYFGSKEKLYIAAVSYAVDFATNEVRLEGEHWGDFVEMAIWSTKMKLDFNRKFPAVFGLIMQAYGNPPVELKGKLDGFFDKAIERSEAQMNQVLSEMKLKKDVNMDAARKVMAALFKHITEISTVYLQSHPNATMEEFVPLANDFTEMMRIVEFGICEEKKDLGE
Test: EMSA
Conditions: boromycin; residues 1-206; probe letters rebuilt from the primers and the genome

“CGTTGTAAAACGACGGGGAATTCCATGTTCTCTCCTCCACACTCAAATTGACCACTTAGTCAACTAGAGTATAATCTCTTTTGACCAGGTAGTCAATTACGAACTATAACACAATAAAAATCTGTAAGACTGTATCCAGTAAAAGTATCCAAATTACTGTTTTCATGCCAGCTCAAGTCTTTAAAAAATCACTTTTAGCTTGATAATGCTAATTTCAATAATTGCGTTATTCCGGATAGAATAACTATATTCCAGGTGATATAATACAGTATGTAAGAAAGTTTATGGTGGTGGCTAACTCTTTCAACATGAAAGGGGGATGCCTATGGCTTTTTTGTTAGGAACTCCTGGAAAGGATAACCCATGACCGTTTATGAAGCACTCTCTTTTGCAGTCGCTTTTACAACTTTAATGTTGTTACTAAACAGTCAAAATAACACAAAAAAATAACCACTCATAAACTTTGGACGGTTTAGCCCGGGGGATCCACTAGTTCTAGAG (double strand) [PtimABR promoter fragment]”: binds.

Tags and fusion partners may be left off the protein sequences shown.
